{"source": "patent US20250213569A1", "about": "“METHODS AND COMPOSITIONS FOR MEASURING AND INHIBITING EXONUCLEASE ACTIVITY” (priority 2020, published 2025)", "molecular_target": "SARS-CoV NSP14/NSP10 complex (Severe acute respiratory syndrome coronavirus (SARS-CoV), UniProt P0C6X7)", "type": "biochemical", "data": [{"smiles": "CC(C)=CCc1c(O)ccc(C(=O)/C=C/c2ccc(O)cc2)c1O", "note": "[Compound 77, Isobavachalcone]", "values": [{"measurement": "IC50", "value": 15, "unit": "µM"}]}]}
